Pooled drug test results. Numbers come from NIAID ChemDB, via PubChem.

All rows: whole-cell or culture tests; agent: HIV-1; measure: EC90

Lines come from different laboratories, so protocols vary.

COc1ccc(S(=O)(=O)N(CC(C)C)C[C@@H](O)[C@H](Cc2ccccc2)NC(=O)OC2CCOC2)cc1 ; strain: IIIB ; cells: CEM ; method: p24 ; result: ≤0.1 µM
O=C1Nc2ccc(Cl)cc2C(C#Cc2cccnc2)(C(F)(F)F)O1 ; changes: RT-K103N ; result: 1.11 µM
C/C(=N\NC(=O)CN1c2c(-c3ccccc3)n[nH]c2-c2ccccc2S1(=O)=O)c1ccncc1 ; cells: PBMC ; method: RT activity ; result: >100 µM
Cc1ccc(C)n1-c1ccc(C(=O)O)c(O)c1 ; strain: 92UG092 X4 CLADE A ; cells: PBMC/5.25M7 ; method: luciferase / cell fusion ; result: 29.03 µM
Cc1nc2c3ncn([C@@H]4O[C@H](CO)[C@@H](O)[C@@]4(C)O)c3nc(N)n2n1 ; strain: LAI ; method: ELISA ; result: >100 µM
Cc1cn([C@H]2CO[C@@H](COP(=O)(N[C@@H](C)C(=O)OC(C)(C)C)Oc3ccccc3)O2)c(=O)[nH]c1=O ; strain: LAI ; changes: RT-M184V ; cells: PBMC ; method: RT activity ; result: >100 µM
C/C(=N\NC(=O)CN1c2c(-c3ccccc3)n[nH]c2-c2ccccc2S1(=O)=O)c1ccc(C)s1 ; cells: PBMC ; method: RT activity ; result: >100 µM
COC(=O)[C@@H](NP(=O)(OC[C@@H]1OC[C@H](n2cc(C)c(=O)[nH]c2=O)O1)Oc1ccccc1)C(C)C ; strain: LAI ; changes: RT-M184V ; cells: PBMC ; method: RT activity ; result: 37.4 µM
O=C1Nc2ccc(Cl)cc2C(OCC2CC2)(C(F)(F)F)O1 ; changes: RT-K103N ; result: 0.989 µM
C/C(=N\NC(=O)CN1c2c(-c3ccccc3)n[nH]c2-c2ccccc2S1(=O)=O)c1ccc2ccccc2c1 ; cells: PBMC ; method: RT activity ; result: >100 µM
CCOC1(C(F)(F)F)OC(=O)Nc2ccc(Cl)cc21 ; changes: RT-K103N ; result: 0.1392 µM
N[C@@H](CC(=O)N[C@@H](CC(=O)O)C(=O)O)C(=O)O ; strain: MN ; cells: CEM/MOLT-4 ; method: syncytia ; result: >100 µg/mL
C/C(=N\NC(=O)CN1c2c(-c3ccccc3)n[nH]c2-c2ccccc2S1(=O)=O)c1ccc(Br)s1 ; cells: PBMC ; method: RT activity ; result: >100 µM
NC(=O)c1[nH]c2ccc(Cl)cc2c1S(=O)(=O)c1ccccc1 ; strain: EFV-resistant (RT K103R V179D P225H) ; changes: RT-K103R V179D P225H ; cells: C8166 ; method: p24 ; result: 0.9 µM
COc1ccc(S(=O)(=O)N(CC(C)C)C[C@@H](O)CCN(CC2CCCC2)S(=O)(=O)C2CS(=O)(=O)CC2O)cc1 ; strain: IIIB ; cells: CEM ; method: p24 ; result: 1 µM
CC(C)CN(C[C@@H](O)[C@H](Cc1ccccc1)NC(=O)[C@H](CC(N)=O)NC(=O)c1ccc2ccccc2n1)S(=O)(=O)c1ccc(F)cc1 ; strain: IIIB ; cells: CEM ; method: p24 ; result: ≤0.1 µM
Nc1cccc(S(=O)(=O)N(CC2CCCC2)C[C@@H](O)CN(CCc2ccccc2)C(=O)O[C@H]2CCOC2)c1 ; strain: IIIB ; cells: CEM ; method: p24 ; result: 0.1 µM
CNc1ncnc2c1ncn2[C@H]1CC[C@@H](CO)O1 ; strain: RF ; cells: C8166 ; method: cytopathic effect / MTT / p24 ; result: 40 µM
C[C@@]1(O)[C@H](O)[C@@H](CO)O[C@H]1n1cnc2c(N)nc(Cl)nc21 ; strain: LAI ; method: ELISA ; result: >100 µM
COC(=O)[C@H](C)NP(=O)(OC[C@@H]1OC[C@H](n2cc(C)c(=O)[nH]c2=O)O1)Oc1ccc(Cl)cc1Cl ; strain: LAI ; changes: RT-M184V ; cells: PBMC ; method: RT activity ; result: 2.8 µM
Cc1cc(C)cc(S(=O)(=O)c2c(C(=O)NC(C)C(=O)NN)[nH]c3ccc(Cl)cc23)c1 ; strain: IIIB ; cells: C8166 ; method: p24 ; result: 0.07 µM
COCCNC(=O)[C@@H](NC(=O)[C@H](Cc1ccc(OC)c(OC)c1)C[C@H](O)[C@H](Cc1ccccc1)NC(=O)OC(C)(C)C)C(C)C ; strain: MN ; cells: MT-2 ; method: RT activity ; result: 0.1 µM
CC(C)(C)NC(=O)[C@@H]1CN(Cc2cccnc2)CCN1C[C@@H](O)C[C@@H](Cc1ccccc1)C(=O)N[C@H]1c2ccccc2C[C@H]1O ; strain: LAI ; cells: HEK293T ; method: p24 / ELISA ; result: 0.0009–0.0018 µM
Cc1cc(C)cc(S(=O)(=O)c2c(C(N)=O)[nH]c3c(Cl)cc(Cl)cc23)c1 ; changes: RT-K103R ; cells: C8166 ; method: cytopathic effect / MTT ; result: >100 µM
COc1ccc(C[C@H](C[C@H](O)[C@H](Cc2ccccc2)NC(=O)OC(C)(C)C)C(=O)N[C@H](C(=O)NCCN(C)C)C(C)C)cc1 ; strain: MN ; cells: MT-2 ; method: RT activity ; result: 0.3 µM
Cc1cc(C)cc(S(=O)(=O)c2c(C(N)=O)[nH]c3c(Cl)cc(Cl)cc23)c1 ; strain: IIIB ; changes: RT-K103R ; cells: C8166 ; method: p24 ; result: >100 µM
CCOCCCNC(=O)[C@@H](NC(=O)[C@H](Cc1ccc(OC)c(OC)c1OC)C[C@H](O)[C@H](Cc1ccccc1)NC(=O)OC(C)(C)C)C(C)C ; strain: MN ; cells: MT-2 ; method: RT activity ; result: 0.03 µM
COc1ccnc2[nH]cc(C(=O)C(=O)N3C4CCC3CN(C(=O)c3ccccc3)C4)c12 ; strain: QH0692 ; cells: TZM-bl ; method: luciferase ; result: 56 µM
C[C@@]1(O)[C@H](O)[C@@H](CO)O[C@H]1n1cnc2c(=O)[nH]nc(N)c21 ; strain: LAI ; method: ELISA ; result: >100 µM
COCCNC(=O)[C@@H](NC(=O)[C@H](Cc1ccccc1OC)C[C@H](O)[C@H](Cc1ccccc1)NC(=O)OC(C)(C)C)C(C)C ; strain: MN ; cells: MT-2 ; method: RT activity ; result: 1 µM
O=C1Nc2ccc(F)c(F)c2[C@@](/C=C/C2CC2)(C(F)(F)F)N1 ; changes: RT-L100I ; result: 0.007 µM
C/C(=N\NC(=O)CN1c2c(-c3ccccc3)n[nH]c2-c2ccccc2S1(=O)=O)c1sc(N)nc1C ; cells: PBMC ; method: RT activity ; result: >100 µM
O=C(c1ccccc1)N(CCc1ccccc1)C[C@H](O)CN(CC1CCCC1)S(=O)(=O)c1nccs1 ; strain: IIIB ; cells: CEM ; method: p24 ; result: 1 µM
CC1(C)CC=C(c2cn(-c3nccc(C(=O)NC4CCC(N5CC6CCC(C5)O6)CC4)n3)c3ccc(F)c([C@H](OC(C)(C)C)C(=O)O)c23)CC1 ; strain: IIIB ; cells: H9 ; method: luminescence ; result: 0.0074 µM
COC(=O)[C@H](C)NP(=O)(OC[C@@H]1OC[C@H](n2cc(C)c(=O)[nH]c2=O)O1)Oc1ccc(C#N)cc1 ; strain: LAI ; changes: RT-M184V ; cells: PBMC ; method: RT activity ; result: 1.6 µM
COCCNC(=O)[C@@H](NC(=O)[C@H](Cc1cc(OC)c(OC)c(OC)c1)C[C@H](O)[C@H](Cc1ccccc1)NC(=O)OC(C)(C)C)C(C)C ; strain: MN ; cells: MT-2 ; method: RT activity ; result: 0.3 µM
COC(=O)[C@H](C)NP(=O)(OC[C@@H]1OC[C@H](n2cc(C)c(=O)[nH]c2=O)O1)Oc1ccc(C)cc1 ; strain: LAI ; changes: RT-M184V ; cells: PBMC ; method: RT activity ; result: 3.4 µM
O=C(CN1c2c(-c3ccccc3)n[nH]c2-c2ccccc2S1(=O)=O)N/N=C/c1cccs1 ; cells: PBMC ; method: RT activity ; result: >100 µM
Cc1cc(C)cc(S(=O)(=O)c2c(C(N)=O)[nH]c3ccc(Cl)cc23)c1 ; strain: IIIB ; cells: C8166 ; method: p24 ; result: 0.006 µM
Cn1cc(C(=O)N2CCC(c3cc(CCOc4ccccc4C(F)(F)F)[nH]n3)C2)cn1 ; strain: BaL ; cells: TZM-bl ; method: luciferase ; result: 8.41 µM
Cc1cn([C@H]2C=C[C@@H](CO)O2)c(=O)[nH]c1=O ; strain: NL-XM WT ; cells: MT-4 ; method: p24 ; result: 0.3 µM
C[C@@]1(O)[C@H](O)[C@@H](CO)O[C@H]1n1cnc(C(=O)NN)c1/C(N)=N/N ; strain: LAI ; method: ELISA ; result: >100 µM
CCCOC1(C(F)(F)F)OC(=O)Nc2ccc(Cl)cc21 ; changes: RT-K103N ; result: 0.064 µM
C/C(=N\NC(=O)CN1c2c(-c3ccccc3)n[nH]c2-c2ccccc2S1(=O)=O)c1cc(C)sc1C ; cells: PBMC ; method: RT activity ; result: >100 µM
O=C(N[C@@H](Cc1ccccc1)[C@H](O)CN(CC1CCCC1)S(=O)(=O)c1ccc(O)cc1)OCc1cccnc1 ; strain: IIIB ; cells: CEM ; method: p24 ; result: ≤0.1 µM
CC(C)[C@H](NC(=O)[C@H](Cc1ccccc1)C[C@H](O)[C@H](Cc1ccccc1)NC(=O)OC(C)(C)C)C(=O)N[C@@H](Cc1ccccc1)C(=O)N1CCOCC1 ; strain: MN ; cells: MT-2 ; method: RT activity ; result: 0.03 µM
C[C@@]1(O)[C@H](O)[C@@H](CO)O[C@H]1n1cnc2c(N)nc(-n3cc([Si](C)(C)C)nn3)nc21 ; strain: LAI ; method: ELISA ; result: >100 µM
O=C1Nc2ccc(F)cc2C(C#Cc2cccs2)(C(F)(F)F)O1 ; changes: RT-K103N ; result: 0.369 µM
O=C1Nc2ccc(F)c(F)c2[C@@](C#CC2CC2)(C(F)(F)F)N1 ; changes: RT-Y188C ; result: <0.012 µM
CSC[C@H]1O[C@@H](n2cnc3c(N)ncnc32)[C@H](O)[C@@H]1O ; cells: C8166 ; method: syncytia ; result: >20 µM
COCC(=O)N1CCC(c2cc(CCOc3ccccc3C(F)(F)F)[nH]n2)C1 ; strain: BaL ; cells: TZM-bl ; method: luciferase ; result: 15.9 µM
O=C1Nc2ccc(F)c(F)c2C(C#Cc2ccsc2)(C(F)(F)F)O1 ; changes: RT-K103N ; result: 0.1559 µM
COc1ccc(S(=O)(=O)N(CC(C)C)C[C@@H](O)CCN(CC2CCCC2)S(=O)(=O)C2C(=O)CC(C)(C)S(=O)(=O)C2=O)cc1 ; strain: IIIB ; cells: CEM ; method: p24 ; result: 1 µM
O=C1Nc2ccc(F)cc2C(C#Cc2ccco2)(C(F)(F)F)O1 ; changes: RT-K103N ; result: 0.3293 µM
O=C(N[C@@H](Cc1ccccc1)[C@H](O)CN(CC1CCCC1)S(=O)(=O)c1ccc(Cl)cc1)O[C@H]1CCOC1 ; strain: IIIB ; cells: CEM ; method: p24 ; result: ≤0.1 µM
Cc1cn([C@H]2CO[C@@H](CO[P@]3(=O)OCC[C@H](c4ccccc4)O3)O2)c(=O)[nH]c1=O ; strain: LAI ; changes: RT-M184V ; cells: PBMC ; method: RT activity ; result: 22.7 µM
COc1ccnc2[nH]cc(C(=O)C(=O)N3C4CCCC3CN(C(=O)c3ccccc3)C4)c12 ; strain: AC10 ; cells: TZM-bl ; method: luciferase ; result: 13 µM
CC(C)[C@H](NC(=O)[C@H](Cc1ccccc1)C[C@H](O)[C@H](Cc1ccccc1)NC(=O)OC(C)(C)C)C(=O)NCCN(C)C ; strain: MN ; cells: MT-2 ; method: RT activity ; result: 0.3 µM
CCCCCCCCCCCCCCCCOCCCOP(=O)(N[C@@H](C)C(=O)OC)OC[C@@H]1OC[C@H](n2cc(C)c(=O)[nH]c2=O)O1 ; strain: LAI ; changes: RT-M184V ; cells: PBMC ; method: RT activity ; result: 15 µM
Nc1nc(=O)n([C@H]2C=C[C@@H](CO)O2)cc1F ; strain: XM-M184V ; changes: RT-M184V ; cells: MT-4 ; method: p24 ; result: 2 µM
O=C1Nc2ccc(Cl)cc2C(OCCC2CC2)(C(F)(F)F)O1 ; changes: RT-K103N ; result: 0.286 µM
NNC(=O)c1[nH]c2ccc(Cl)cc2c1S(=O)(=O)c1ccccc1 ; strain: IIIB ; cells: C8166 ; method: p24 ; result: 0.02 µM
COCCNC(=O)[C@@H](NC(=O)[C@H](Cc1ccc(OC)cc1OC)C[C@H](O)[C@H](Cc1ccccc1)NC(=O)OC(C)(C)C)C(C)C ; strain: MN ; cells: MT-2 ; method: RT activity ; result: 0.1 µM
COc1nc(Cl)nc2c1ncn2[C@@H]1O[C@H](CO)[C@@H](O)[C@@]1(C)O ; strain: LAI ; method: ELISA ; result: >100 µM
CCCCCCCCCCCCCCCCCCOCCOP(=O)(N[C@@H](C)C(=O)OC)OC[C@@H]1OC[C@H](n2cc(C)c(=O)[nH]c2=O)O1 ; strain: LAI ; changes: RT-M184V ; cells: PBMC ; method: RT activity ; result: 35.1 µM
COc1ccccc1C[C@H](C[C@H](O)[C@H](Cc1ccccc1)NC(=O)OC(C)(C)C)C(=O)N[C@H](C(=O)N[C@@H](Cc1ccccc1)C(=O)N1CCOCC1)C(C)C ; strain: MN ; cells: MT-2 ; method: RT activity ; result: 0.1 µM

The last 7 rows once more:

smiles	strain	changes	cells	method	result
Nc1nc(=O)n([C@H]2C=C[C@@H](CO)O2)cc1F	XM-M184V	RT-M184V	MT-4	p24	2 µM
O=C1Nc2ccc(Cl)cc2C(OCCC2CC2)(C(F)(F)F)O1	-	RT-K103N	-	-	0.286 µM
NNC(=O)c1[nH]c2ccc(Cl)cc2c1S(=O)(=O)c1ccccc1	IIIB	-	C8166	p24	0.02 µM
COCCNC(=O)[C@@H](NC(=O)[C@H](Cc1ccc(OC)cc1OC)C[C@H](O)[C@H](Cc1ccccc1)NC(=O)OC(C)(C)C)C(C)C	MN	-	MT-2	RT activity	0.1 µM
COc1nc(Cl)nc2c1ncn2[C@@H]1O[C@H](CO)[C@@H](O)[C@@]1(C)O	LAI	-	-	ELISA	>100 µM
CCCCCCCCCCCCCCCCCCOCCOP(=O)(N[C@@H](C)C(=O)OC)OC[C@@H]1OC[C@H](n2cc(C)c(=O)[nH]c2=O)O1	LAI	RT-M184V	PBMC	RT activity	35.1 µM
COc1ccccc1C[C@H](C[C@H](O)[C@H](Cc1ccccc1)NC(=O)OC(C)(C)C)C(=O)N[C@H](C(=O)N[C@@H](Cc1ccccc1)C(=O)N1CCOCC1)C(C)C	MN	-	MT-2	RT activity	0.1 µM

An empty or dashed field is not shown. Two numbers with a dash give a range or band. ECn: concentration that inhibits the pathogen or its effect by n%.